In assay [1] the target is T1, wild type S. aureus Hemolysin A toxin (Staphylococcus aureus).
Assay [2] has as its target T1, wild type S. aureus Hemolysin A toxin. As to the kind of experiment: cell-based or functional assay.
In assay [3] the target is T2, mutant Hemolysin A (Hla-H35L) (Staphylococcus aureus). As to the kind of experiment: SPR (Biacore T200), mAb captured via anti-human Fc, toxin injected, 25 C.
The target in assay [4] is T2, mutant Hemolysin A (Hla-H35L). As to the kind of experiment: SPR (Biacore T200), mAb captured via anti-human Fc, toxin injected, 37 C. For orientation: In SPR one partner is held on a chip, and binding of the other changes the refractive index at the surface.

We go through seven molecules from patent US20180214569A1 (Regeneron, published 2018).

B1: H1H15418P2 (antibody, V domains shown)
VH: QVQLVESGGGLVRPGGSLRLSCEASGFTFNEHYMSWIRQAPGKGLEWVAFISSGGSIIYYADSVKGRFTISRDSAKNSLYLQMNSLRPEDTAIYYCAREPFGGIIVFDYWGQGTLVTVSS
VL: not shown
Broadly, the Kd is the free concentration of one partner at which half of the binding sites on the other are occupied at equilibrium, for simple one-to-one binding. High values mean weaker binding, low ones tighter binding. The koff is the rate constant with which the complex falls apart. Usually kon stands for the rate constant with which the complex forms. Low values mean slower complex formation, high ones faster complex formation. In assay [1], B1 came in with a Kd of 0.849 nM, a koff of 0.000102 s⁻¹, a kon of 120000 M⁻¹ s⁻¹ and a t1/2 of 113 min. Also, in assay [2], the “IC50 [M] for Hemolysin A neutralization (THP-1 cytotoxicity assay)” value (shortened to “IC50 [M] for Hemolysin A neutralization”) turned out to be 2.47e-09 M. Besides, in assay [3], the Kd came to 0.188 nM, the koff came to 7.43e-05 s⁻¹, the on-rate constant (kon) is 396000 M⁻¹ s⁻¹ and the t1/2 is 155 min. In assay [4], this molecule came in with a Kd of 0.403 nM, a koff of 0.000229 s⁻¹, a kon of 568000 M⁻¹ s⁻¹ and a t1/2 of 51 min.

B2: H1H15420P2 (antibody, V domains shown)
VH: QVQLQESGLGLVKPSETLSLTCTVSGDSIGTYYWSWIRQPPGKGLEWIAYIYDSRHSNSNPSLKSRVTTSVDMSKNQFSLQLKSVTAADTAVYFCARDWGTWKPEGAFDIWGQGTMVTVSS
VL: not shown
For the molecule B2, in assay [1], binding was put at a Kd of 0.171 nM, the koff was found to be 0.000131 s⁻¹, the kon was determined as 767000 M⁻¹ s⁻¹ and the t1/2 was found to be 88 min. In addition, the “IC50 [M] for Hemolysin A neutralization” value in assay [2] worked out at 4.14e-09 M. For the same molecule, in assay [3], the Kd was found to be 0.0523 nM, the koff worked out at 0.000119 s⁻¹, the kon worked out at 2.28e+06 M⁻¹ s⁻¹ and the t1/2 is 97 min. In assay [4], this molecule came in with a Kd of 0.0747 nM, a koff of 0.000266 s⁻¹, a kon of 3.56e+06 M⁻¹ s⁻¹ and a t1/2 of 43 min.

B3: H1H15377P (antibody, V domains shown)
VH: EVQLVESGGGLVQPGGSLRLSCAASGFTFTSYEMNWVRQAPGKGLEWISYISSGGDTKYYADSVRGRFTISRDNAKNSLYLQMNSLRAEDTALYYCARDVLNWVFDYWGRGTLVTVSS
VL: DIQMTQSPSSLSASVGDRVTITCRASQSIGKYLNWYRQSPGKAPKLLIYATSSLQSGVPSSFSGSGSGTDFTLTISSLQPEDFATYYCQQGFRTPFTFGPGTKVDIK
In assay [1], B3 showed a Kd of 1.02 nM, a koff of 0.000315 s⁻¹, a kon of 309000 M⁻¹ s⁻¹ and a t1/2 of 37 min. In addition, the “IC50 [M] for Hemolysin A neutralization” value in assay [2] turned out to be 1.76e-09 M. In assay [3], this molecule came in with a Kd of 0.367 nM, a koff of 0.000411 s⁻¹, a kon of 1.12e+06 M⁻¹ s⁻¹ and a t1/2 of 28 min. In assay [4], this molecule displayed a Kd of 0.864 nM, a koff of 0.00137 s⁻¹, a kon of 1.59e+06 M⁻¹ s⁻¹ and a t1/2 of 8 min.

B4: H1H15378P (antibody, V domains shown)
VH: EVQLVESGGGLVQPGGSLRLSCAASGFTFNNYEMNWVRQAPGKGLEWVSFISSSGSTIDYAVSVKGRFTISRDNAKNSLYLQMNSLRPGDTAVYYCARARLDFYYYGMDVWGQGTTVTVSS
VL: DIQMTQSPSSLSASVGDRVTITCRASQGISNYLAWFQQKPGKAPKSLIYATSTLQSGVPSKFSGSGSGTDFTLTISSLQPEDFATYYCQQYNSFPLTFGGGTKVEIK
With B4, in assay [1], the Kd amounted to 26.2 nM, the koff is 0.00788 s⁻¹, the kon stood at 301000 M⁻¹ s⁻¹ and the t1/2 was determined as 1.5 min. Further, in assay [2], the “IC50 [M] for Hemolysin A neutralization” value was 1.07e-08 M. Further, in assay [3], binding was put at a Kd of 8.89 nM, the koff is 0.00681 s⁻¹, the kon came to 766000 M⁻¹ s⁻¹ and the t1/2 came out at 1.7 min. In assay [4], this molecule gave a Kd of 17.8 nM, a koff of 0.0168 s⁻¹, a kon of 943000 M⁻¹ s⁻¹ and a t1/2 of 0.7 min.

B5: H1H15379P (antibody, V domains shown)
VH: EVQLVESGGGLVQPGWSLRLSCAASGFTFDDYAMHWVRQAPGKGLEWVSGISWNSDDIDYTDSVKGRFTVSRDNAKNSLYLQMNSLRADDTAFYYCVRQRVRGYYYFGMDVWGQGTTVTVSS
VL: DIQMTQSPSSLSASVGDRVTITCRASQGISNYLAWFQQKPGKAPMSLIYAASSLQSGVPSKFSGSGSGTDFTLTISSLQPEDFATYYCQQYNSYPFTFGPGTKVDIK
With B5, in assay [1], the Kd was 26.1 nM, the koff was determined as 0.00634 s⁻¹, the kon is 243000 M⁻¹ s⁻¹ and the t1/2 came to 1.8 min. Further, in assay [2], the “IC50 [M] for Hemolysin A neutralization” value worked out at 6.95e-09 M. In addition, in assay [3], binding was characterised by a dissociation constant (Kd) of 6.51 nM, the koff was determined as 0.00443 s⁻¹, the kon stood at 681000 M⁻¹ s⁻¹ and the t1/2 amounted to 2.6 min. Moreover, in assay [4], the Kd is 18.7 nM, the koff amounted to 0.012 s⁻¹, the kon stood at 641000 M⁻¹ s⁻¹ and the t1/2 amounted to 1 min.

B6: H1H15410P (antibody, V domains shown)
VH: QVQLQESGPGLVKPSETLSLTCTVSGGSISGYFWGWVRQPPGKGLEWIGYIFYSGSTNYNPSLKSRITLSVDTSKNQFSLKLSSVTAADTAIYYCARHREYYGSGNYRYYALDVWGQGTTVTVSS
VL: AIQMTQSPSSLSASVGDRVTITCRASQGIRDDLGWYQQKPGKAPKLLIYAASSLQSGVPSRFSGSGSGTDFTLTISSLQPEDFATYYCLQDYNFPLTFGQGTKVEIK
As for B6, in assay [1], binding was characterised by a dissociation constant (Kd) of 8.22 nM, the koff is 0.000462 s⁻¹, the kon was found to be 56200 M⁻¹ s⁻¹ and the t1/2 turned out to be 25 min. In addition, the “IC50 [M] for Hemolysin A neutralization” value in assay [2] was found to be 5.89e-09 M. In assay [3], the dissociation constant (Kd) worked out at 2.63 nM, the koff is 0.000399 s⁻¹, the kon was determined as 152000 M⁻¹ s⁻¹ and the t1/2 is 29 min. In addition, in assay [4], the Kd stood at 9.72 nM, the dissociation rate constant (koff) worked out at 0.00219 s⁻¹, the kon came out at 226000 M⁻¹ s⁻¹ and the t1/2 turned out to be 5 min.

B7: H1H15376P (antibody, V domains shown)
VH: QVQLQQSGPGLVKPSQTLSLTCAISGDSVASNNAAWNWIRQSPSRGLEWLGRTYYRSKWFNDYVESVKSRISFNPDTSKNQFSLQLNSVTPEDTAVYYCARSYYDFWSGYSENNYYFYGMDVWGQGTTVTVSS
VL: DIQMTQSPSSLSASVGDRVSITCRTSQGIRNDLGWYQQKPGKAPKRLIYAASSLQSGVPSRFSGSGSGTEFTLTISSLQPEDFATYYCLQHNIYPPTFGQGTKVEIK
In assay [1], B7 returned a Kd of 16.4 nM, a koff of 0.00218 s⁻¹, a kon of 133000 M⁻¹ s⁻¹ and a t1/2 of 5 min. For the same molecule, the “IC50 [M] for Hemolysin A neutralization” value in assay [2] was 7.45e-09 M. In assay [3], this molecule returned a Kd of 3.43 nM, a koff of 0.00145 s⁻¹, a kon of 422000 M⁻¹ s⁻¹ and a t1/2 of 8 min. Also, in assay [4], binding was put at a Kd of 9.32 nM, the koff is 0.00441 s⁻¹, the kon was 473000 M⁻¹ s⁻¹ and the t1/2 came out at 2.6 min.
